Paper PMC5415745, “Drug-transporter mediated interactions between anthelminthic and antiretroviral drugs across the Caco-2 cell monolayers” (BMC Pharmacology & Toxicology, 2017)
Values joined by “and” are separate entries in the source; they are usually repeats but may differ in a detail not shown here. Equal values may be shown once.

System: Caco-2 cell monolayers
Assay: Bidirectional (AP→BL, BL→AP) drug transport across Caco-2 cell monolayers in transwells: cumulative transport, Papp, efflux ratio; HPLC or radiolabeled assay
Conditions: individual samples 1-3

Apical to basal transport (cumulative, receiver) (180 min) | Compound | Efflux ratio ER (PappBA/PappAB) (60 min (3600 sec)) | Basal to apical transport (cumulative, receiver) (180 min) [pmol]
– | CC[C@H](C)[C@H]1O[C@]2(CC[C@@H]1C)C[C@@H]1C[C@@H](C/C=C(\C)[C@@H](O[C@H]3C[C@H](OC)[C@@H](O[C@H]4C[C@H](OC)[C@@H](O)[C@H](C)O4)[C@H](C)O3)[C@@H](C)/C=C/C=C3\CO[C@@H]4[C@H](O)C(C)=C[C@@H](C(=O)O1)[C@]34O)O2 [IVM, ivermectin] | 1.19 | 1.49
26.92 pmol and 26.96 pmol | O=C(C1CCCCC1)N1CC(=O)N2CCc3ccccc3C2C1 (stereo not shown) [PZQ, praziquantel] | – | 22.42
